For this series, the system named is HepG2 cells.

Isoeugenol: the midpoint of cytotoxicity, the CC50, lay at 3.9 ± 0.343 mM.

The values above are taken from article PMC7114128 (Antiviral Research, 2009).
